Assay results as given in article PMC9436389 (2022).
Where two headings read alike, the source gives them in different places.

Experiments:
[1] = molecular target: LASV GPCclamp (clamp-stabilised Lassa virus glycoprotein precursor) (Lassa virus (Josiah strain) | HIV) (UniProt P08669); experiment: SEC
[2] = molecular target: LASV GPCclamp (clamp-stabilised Lassa virus glycoprotein precursor) (Lassa virus (Josiah strain) | HIV) (UniProt P08669)

| Substance | stoichiometry N [1] | stoichiometry N [2] |
| --- | --- | --- |
| LASV GPCclamp (clamp-stabilised Lassa virus glycoprotein precursor) (from UniProt P08669;P04578) (domain or fragment) | 3 | – |
| LASV GPCclamp (clamp-stabilised Lassa virus glycoprotein precursor) (from UniProt P08669;P04578) | – | 3 |
